A mixed list of measured activities; the numbers were collected in NIAID ChemDB.

All rows: whole-cell or culture tests; organism: Poliovirus

Blank or dashed fields: not listed here. Percent inhibition refers to the dose given; in toxicity tests it is the harm to the cells. ECn is the concentration giving n% inhibition of infection, replication or growth. Conditions beyond the fields shown may differ between rows.

smiles | strain | cells | measure | tested at | value
c1ccc(C2COc3ccccc3C2)cc1 | IB (TYPE 2) | HEP-2 | inhibition | 10 µM | 15%
CC(=O)c1ccc2c(c1)Cc1ccccc1O2 | TYPE 3 | BSC-1 | inhibition | 0.4 µg/mL | 50%
Nc1ncnc2c1ncn2[C@@H]1C=C[C@@H](O)[C@H]1O | TYPE 1 | - | MIC | - | >400 µg/mL
Cc1ccc(C(=O)CCCCOc2ccc(C3=NCCO3)cc2)s1 | TYPE 1 | VERO | EC50 | - | >29.01 µM
C1=C(c2ccccc2)COc2ccccc21 | SABIN (TYPE 2) | HEP-2 | EC50 | - | <10 µM
Cc1cc(CCCCCOc2cc(Cl)c(-c3nnco3)c(Cl)c2)on1 | TYPE 2 | - | MIC | - | 2.24 µg/mL
Clc1ccc(C2COc3ccccc3C2)cc1 | II (TYPE 2) | HEP-2 | inhibition | 10 µM | 0%
Cc1ccnc(SC/C=C/CSc2nc3cc(Cl)ccc3s2)n1 | - | - | MIC | - | 3.2 µM
Nc1ncnc2c1ncn2[C@@H]1CC[C@@H](O)[C@H]1O | TYPE 1 | - | MIC | - | >200 µg/mL
CC(C)CCC[C@@H](COS(=O)(=O)O)[C@H]1CC[C@H]2[C@@H]3CC[C@@H]4[C@H](O)[C@H](OS(=O)(=O)O)CC[C@]4(C)[C@H]3[C@@H](O)C[C@]12C | SABIN (TYPE 3) | VERO | inhibition | 10 µg/mL | 26%
Cc1ccc(C(=O)CCCCOc2ccc(C3=NCC(C)O3)cc2Cl)s1 | TYPE 1 | VERO | EC50 | - | 16.1 µM
CC(=O)c1ccc2c(c1)Sc1cc(C(C)=O)ccc1O2 | TYPE 3 | BSC-1 | inhibition | 10 µg/mL | 5%
Cc1ccc(C(=O)CCCCCCOc2ccc(C3=NCC(C)O3)cc2)s1 | TYPE 2 | VERO | EC50 | - | 5.41 µM
CC(=O)c1ccc(Oc2ccccc2)cc1 | TYPE 3 | BSC-1 | inhibition | 10 µg/mL | 100%
Nc1nccc2c1ncn2[C@@H]1CC[C@@H](O)[C@H]1O | TYPE 1 | - | MIC | - | >200 µg/mL
CCC(=O)C(CCCCCCOc1ccc(OC)cc1Cl)C(=O)CC | MEF (TYPE 2) | HeLa | inhibition | 0.54 µM | 98%
CCC1COC(c2ccc(OCCCCC(=O)c3ccc(C)s3)cc2)=N1 | TYPE 1 | VERO | EC50 | - | >26.95 µM
CC(C)/C=C/[C@@H](COS(=O)(=O)O)[C@H]1CC[C@H]2[C@@H]3CC[C@@H]4[C@H](O)[C@H](OS(=O)(=O)O)CC[C@]4(C)[C@H]3[C@@H](O)C[C@]12C | SABIN (TYPE 3) | VERO | inhibition | 20 µg/mL | 29%
CC(O)c1ccc2c(c1)Cc1ccccc1O2 | TYPE 3 | BSC-1 | inhibition | 0.4 µg/mL | 22%
Nc1nccc2c1ncn2[C@@H]1C=C(CO)[C@@H](O)[C@H]1O | TYPE 1 | - | MIC | - | >400 µg/mL

The first 2 rows once more:

smiles,strain,cells,measure,tested at,value
c1ccc(C2COc3ccccc3C2)cc1,IB (TYPE 2),HEP-2,inhibition,10 µM,15%
CC(=O)c1ccc2c(c1)Cc1ccccc1O2,TYPE 3,BSC-1,inhibition,0.4 µg/mL,50%